Data as given in US6803374B2, “Compounds useful for treating hepatitis C virus” (priority 2001, dated 2004).

Sequences of proteins named here, by UniProt entry; tags and fusion partners are left off. Residues count along the entry.
UniProt Q9WMX2, 2420-2992 limits assumed: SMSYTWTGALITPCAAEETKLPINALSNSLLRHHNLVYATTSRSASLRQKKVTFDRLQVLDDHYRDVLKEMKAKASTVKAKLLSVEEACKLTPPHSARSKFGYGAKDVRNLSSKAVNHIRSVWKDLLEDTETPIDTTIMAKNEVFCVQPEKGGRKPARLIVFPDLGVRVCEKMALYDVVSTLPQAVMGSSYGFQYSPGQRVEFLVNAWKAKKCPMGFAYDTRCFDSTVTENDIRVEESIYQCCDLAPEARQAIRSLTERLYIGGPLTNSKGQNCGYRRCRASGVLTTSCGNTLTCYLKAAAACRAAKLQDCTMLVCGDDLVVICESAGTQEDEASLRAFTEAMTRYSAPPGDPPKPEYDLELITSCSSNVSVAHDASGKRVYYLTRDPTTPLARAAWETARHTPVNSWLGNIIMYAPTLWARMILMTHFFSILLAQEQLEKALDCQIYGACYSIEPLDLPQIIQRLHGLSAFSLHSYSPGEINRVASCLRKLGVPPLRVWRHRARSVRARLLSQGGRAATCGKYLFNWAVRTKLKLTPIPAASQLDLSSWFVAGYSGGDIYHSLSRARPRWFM

Target: HCV NS5B RdRp genotype 1b (Hepatitis C virus genotype 1b, UniProt Q9WMX2)
Assay: HCV NS5B RdRp enzyme assay
Assay type: biochemical
Conditions: HCV RdRp genotype 1b enzyme, C-terminal 18 aa truncated; average of single point IC50 values
Protocol: HCV NS5B RdRp cloning, expression and purification. The cDNA encoding the NS5B protein of HCV, genotype 1b, was cloned into the pET21a expression vector. The protein was expressed with an 18 amino acid C-terminal truncation to enhance the solubility. The E. coli competent cell line BL21(DE3) was used for expression of the protein. Cultures were grown at 37° C. for ˜4 hours until the cultures reached an optical density of 2.0 at 600 nm. The cultures were cooled to 20° C. and induced with 1 mM IPTG. Fresh ampicillin was added to a final concentration of 50 ug/ml and the cells were grown overnight at 20° C.
Cell pellets (3L) were lysed for purification to yield 15-24 mgs of purified NS5B. The lysis buffer consisted of 20 mM Tris-HCl, pH 7.4, 500 mM NaCl, 0.5% triton X-100, 1 mM DTT, 1 mM EDTA, 20% glycerol, 0.5 mg/ml lysozyme, 10 mM MgCl2, 15 ug/ml deoxyribonuclease I, and Complete TM protease inhibitor tablets (Roche). After addition of the lysis buffer, frozen cell pellets were resuspended using a tissue homogenizer. To reduce the viscosity of the sample, aliquots of the lysate were sonicated on ice using a microtip attached to a Branson sonicator. The sonicated lysate was centrifuged at 100,000×g for 1 hr at 4° C. and filtered through a 0.2 μm filter unit (Corning). […]
HCV NS5B RdRp enzyme assay. […] Plates were read on a Packard Top Count NXT. […]

SMILES: O=C(c1ccc(-c2ccc(Cl)cc2)c(COc2ccc(-c3nc4cc(-c5nnn[nH]5)ccc4n3C3CCCCC3)cc2)c1)N1CCC(O)CC1 [Example 48]
- IC50: 860 nM

The match of structure and compound is tentative.
